Anti-infective test results gathered from many reports (values: NIAID ChemDB through PubChem).

Common to all: whole-cell or culture tests; agent: HIV-1; read by: MTT; measure: EC50

ECn is the concentration giving n% inhibition of infection, replication or growth. Neighbouring rows are from separate reports. An empty or dashed field is not shown.

CNc1nc(Nc2ccc(C#N)cc2)nc(Oc2ccc3ccccc3c2)c1C ; mutations: WT ; cell line: MT-4 ; strain or isolate: IIIB ; result: 0.09 µM
CC(=O)Nc1cc(S(=O)(=O)O)cc2cc(S(=O)(=O)O)cc(O)c12 ; cell line: MT-4 ; strain or isolate: HE ; result: 9.2 µM
Nn1cc(C(=O)O)c(=O)c2ccc(N3CCN(c4ccccn4)CC3)cc21 ; cell line: MT-4 ; strain or isolate: IIIB ; result: 6.32 µM
Cc1[nH]c2ccc3c(c2c(=O)c1O[C@@H]1O[C@H](CO)[C@@H](O)[C@H](O)[C@H]1O)[C@@H]1CC[C@H](O)[C@@]3(c2ccccc2)O1 ; cell line: CEM ; result: >100 µM
CCc1c(Cc2cc(C)cc(C)c2)n(COCC#Cc2ccc(CO)cc2)c(=O)[nH]c1=O ; mutations: Y181C ; cell line: MT-4 ; strain or isolate: IIIB ; result: 1 µM
COc1ccc(CSc2nc(C(=O)c3ccc(F)cc3)c(C(C)C)c(=O)[nH]2)cc1 ; cell line: MT-4 ; strain or isolate: IIIB ; result: 0.29 µM
Cc1cn([C@H]2C[C@H](N=[N+]=[N-])[C@@H](CO)O2)c(=O)[nH]c1=O ; cell line: MT-4 ; strain or isolate: IIIB ; result: 0.01323 µM
O=Cc1coc2c(Br)cc(Br)cc2c1=O ; cell line: HTLV-I-bearing MT-4 ; strain or isolate: IIIB ; result: >200 µg/mL
CC1(C)C=Cc2c(c3c(c4ccc(=O)oc24)OC(C)(C)C=C3)O1 ; cell line: MT-4 ; strain or isolate: IIIB ; result: >41 µM
COC(=O)c1ccc(CN2CCC(Nc3nc(Oc4c(C)cc(C#N)cc4C)c4ccsc4n3)CC2)cc1 ; mutations: NNRTI-resistant (RT E138K) ; cell line: MT-4 ; strain or isolate: IIIB ; result: 0.0356 µM
COc1ccc(CSc2nc(C(=O)c3cccc(F)c3)c(C)c(=O)[nH]2)cc1 ; cell line: MT-4 ; strain or isolate: IIIB ; result: >325 µM
CCc1c(Cc2ccccc2C)n(COCC#Cc2ccc(NC(=O)CBr)cc2)c(=O)[nH]c1=O ; mutations: Y181C ; cell line: MT-4 ; strain or isolate: IIIB ; result: 13 µM
Nc1cc2c(=O)c(C(=O)O)cn(N)c2cc1N1CCN(c2ccccn2)CC1 ; cell line: MT-4 ; strain or isolate: IIIB ; result: 2.23 µM
CCOP(=O)(CC[C@]1(C(F)(F)F)CC[C@H](n2cnc3c(N)ncnc32)C1)OCC ; cell line: MT-4 ; result: 9.2 µM
C[Si](O)(CCCn1cnc2c(N)ncnc21)c1ccccc1 ; cell line: MT-2 ; strain or isolate: IIIB ; result: 1 µM
COC(=O)C[C@@H](OC1=C(C)C(=O)C(C)(C)C1=O)c1ccccc1 ; cell line: C8166 ; result: 25.91 µM
O=C(O)c1cc2ccccc2oc1=O ; cell line: HTLV-I-bearing MT-4 ; strain or isolate: IIIB ; result: >1000 µg/mL
Cc1cc(C#N)cc(C)c1Oc1nc(Nc2ccc(C#N)cc2)nc(N)c1Br ; cell line: MT-4 ; strain or isolate: IIIB ; result: 0.003 µM
O=C(CCCCCCCCCCC(=O)Nc1cc(S(=O)(=O)O)cc2cc(S(=O)(=O)O)cc(O)c12)Nc1cc(S(=O)(=O)O)cc2cc(S(=O)(=O)O)cc(O)c12 ; cell line: MT-4 ; strain or isolate: IIIB ; result: 42 µM
Cc1cc(/C=C/C#N)cc(C)c1Oc1nc(NC2CCN(Cc3ccccc3Cl)CC2)nc2ccsc12 ; mutations: NNRTI-resistant (RT Y188L) ; cell line: MT-4 ; strain or isolate: IIIB ; result: 0.207 µM
CCc1c(Cc2ccc(OC)c(OC)c2)n(COCCc2ccccc2)c(=O)[nH]c1=O ; mutations: Y181C ; cell line: MT-4 ; strain or isolate: N119 ; result: >73 µM
Cc1cc(/C=C/C#N)cc(C)c1Oc1nc(NC2CCN(Cc3ccc([N+](=O)[O-])cc3)CC2)nc2ccsc12 ; mutations: NNRTI-resistant (RT E138K) ; cell line: MT-4 ; strain or isolate: IIIB ; result: 0.0408 µM
C[Si](C)(CCCn1ccnc1)O[Si](C)(C)CCCn1ccnc1 ; cell line: MT-2 ; strain or isolate: IIIB ; result: 11 µM
Nc1ccn([C@H]2CC[C@@H](CO)O2)c(=O)n1 ; mutations: RTMDR1 ; cell line: MT-4 ; strain or isolate: RTMDR ; result: 1.65 µM
Cc1cc(/C=C/C#N)cc(C)c1Oc1nc(NC2CCN(Cc3ccccc3Br)CC2)nc2ccsc12 ; cell line: MT-4 ; strain or isolate: RES056 ; result: 0.351 µM
Cc1cn([C@H]2C[C@H](N=[N+]=[N-])[C@@H](CO)O2)c(=O)[nH]c1=O ; cell line: C8166 ; result: 0.0152 µM
Nn1cc(C(=O)O)c(=O)c2cc(O)c(N3CCN(c4cccc(C(F)(F)F)c4)CC3)cc21 ; cell line: MT-4 ; strain or isolate: IIIB ; result: >20.96 µM
CCc1ccc(NC(=O)C2=C(C)NC(=O)C3C(N)=NN=C23)cc1 ; cell line: MT-4 ; strain or isolate: IIIB ; result: 98 µg/mL
Nn1cc(C(=O)O)c(=O)c2ccc(N3CCN(c4cccc(C(F)(F)F)c4)CC3)cc21 ; cell line: MT-4 ; strain or isolate: IIIB ; result: >0.69 µM
CCc1c(Cc2cc(C)cc(C)c2)n(COCc2ccc(C#CCO)cc2)c(=O)[nH]c1=O ; mutations: WT ; cell line: MT-4 ; strain or isolate: IIIB ; result: 0.006 µM
Nc1ccn([C@@H]2CC[C@H](CO)O2)c(=O)n1 ; cell line: MT-4 ; strain or isolate: RF ; result: 3 µM
CC(C)c1c(Cl)nc(Nc2ccc(C#N)cc2)nc1Oc1ccc2ccccc2c1Br ; mutations: WT ; cell line: MT-4 ; strain or isolate: IIIB ; result: 0.208 µM
Cc1c(C(=O)O)c(=O)c2cc(N)c(N3CCN(c4ccccn4)CC3)cc2n1C ; cell line: MT-4 ; strain or isolate: IIIB ; result: >177 µM
CNc1nc(Nc2ccc(C#N)cc2)nc(Oc2ccc3ccccc3c2)c1C(C)C ; mutations: K103N + Y181C ; cell line: MT-4 ; strain or isolate: IIIB ; result: >25.15 µM
CCCCCCCCCCCCCCCCCCOC1C(OCc2ccccc2)C2COC(O2)C1OCc1ccccc1 ; cell line: MT-4 ; result: 0.09 µg/mL
Cc1cc(C#N)cc(C)c1Oc1nc(NC2CCC(NCc3ccc(O)cc3)CC2)nc2ccsc12 ; mutations: NNRTI-resistant (RT K103N) ; cell line: MT-4 ; strain or isolate: IIIB ; result: 4.6 µM
Cc1c(Cl)nc(Nc2ccc(C#N)cc2)nc1Oc1ccc2ccccc2c1 ; mutations: WT ; cell line: MT-4 ; strain or isolate: IIIB ; result: 0.091 µM
O=C1CSC(c2ccccn2)N1c1ccc(Cl)cn1 ; cell line: MT-2 ; strain or isolate: IIIB ; result: 0.108 µM
Cc1cn([C@H]2C[C@H](N=[N+]=[N-])[C@@H](CO)O2)c(=O)[nH]c1=O ; cell line: MT-4 ; strain or isolate: IIIB ; result: 0.0015 µg/mL
CCc1c(Cc2cc(C)cc(C)c2)n(COCCc2ccccc2)c(=O)[nH]c1=O ; mutations: Y181C ; cell line: MT-4 ; strain or isolate: N119 ; result: 5.6 µM
N#Cc1coc2ccccc2c1=O ; cell line: HTLV-I-bearing MT-4 ; strain or isolate: IIIB ; result: >200 µg/mL
C[Si](O)(O[Si](C)(CCCn1cnc2c(N)ncnc21)c1ccccc1)c1ccccc1 ; cell line: MT-2 ; strain or isolate: IIIB ; result: 12 µM
CSC1=NC2(C[C@@H]2c2ccccc2)C(=O)N1 ; cell line: MT-4/C8166 + MT-4 ; strain or isolate: IIIB ; result: 2.1 µg/mL
CC(C)COC12CCC(C(=O)C1)C1C(=O)N(CCCCN3CCN(c4ccccc4)CC3)C(=O)C12 ; cell line: MT-4 ; result: >84 µM
CCc1c(Cl)nc(Nc2ccc(C#N)cc2)nc1Oc1ccc2cc(C#N)ccc2c1Br ; mutations: WT ; cell line: MT-4 ; strain or isolate: IIIB ; result: 0.732 µM
O=c1ccn(C23C=C[C@@H](CO)[C@@H]2C3)c(=O)[nH]1 ; cell line: MT-4 ; strain or isolate: IIIB ; result: >100 µg/mL
CCOP(=O)(CC[C@]1(C(F)(F)F)CC[C@H](n2cnc3c(Cl)nc(N)nc32)C1)OCC ; cell line: MT-4 ; result: 56.2 µM
COc1ccc(OC)c(C2SCC(=O)N2c2ccccn2)c1 ; cell line: MT-2 ; strain or isolate: IIIB ; result: 1.064 µM
CCc1c(Cc2cc(C)cc(C)c2)n(COCC#CC#CCO)c(=O)[nH]c1=O ; mutations: WT ; cell line: MT-4 ; strain or isolate: IIIB ; result: 0.008 µM
CCOCn1c(Cc2ccccc2)c(C(C)C)c(=O)[nH]c1=O ; mutations: K103R/V179D/P225H ; cell line: MT-4 ; strain or isolate: EFVR ; result: >100 µM
COC(=O)c1ccc(Nc2ccc(OC)c3ccccc23)cc1 ; cell line: MT-4 ; result: >1.07 µM
O=C1Nc2ccc(Cl)cc2[C@@](C#CC2CC2)(C(F)(F)F)O1 ; mutations: F227L + V106A ; cell line: MT-4 ; result: 0.255 µM
CNc1nc(Nc2ccc(C#N)cc2)nc(Oc2ccc3ccccc3c2Br)c1C(C)C ; mutations: K103N + Y181C ; cell line: MT-4 ; strain or isolate: IIIB ; result: 6.31 µM
CCc1c(Cc2ccc(C)cc2)n(COCCCc2ccccc2)c(=O)[nH]c1=O ; mutations: Y181C ; cell line: MT-4 ; strain or isolate: N119 ; result: >43 µM
CCOC(=O)c1nnsc1NCCCCNc1snnc1C(=O)OCC ; cell line: MT-4 ; strain or isolate: IIIB ; result: >105 µM
Cc1cc(/C=C/C#N)cc(C)c1Oc1ccnc(Nc2ccc(CN3CCN(S(=O)(=O)N(C)C)CC3)cc2)n1 ; cell line: MT-4 ; strain or isolate: IIIB ; result: 0.0045 µM
COc1cc2oc(=O)c3c(O)ccc(O)c3c2c(OC)c1OC ; cell line: C8166 ; result: 20.33 µM
C[Si](C)(CCCSc1ncccn1)O[Si](C)(C)CCCSc1ncccn1 ; cell line: MT-2 ; strain or isolate: IIIB ; result: 3 µM
CCc1c(Cc2cc(C)cc(C)c2)n(COCC2CC2)c(=O)[nH]c1=O ; mutations: K103R/V179D/P225H ; cell line: MT-4 ; strain or isolate: EFVR ; result: >51 µM
COc1ccc(CSc2nc(C(=O)c3ccc(F)cc3)c(C)c(=O)[nH]2)cc1 ; cell line: MT-4 ; strain or isolate: IIIB ; result: 6.35 µM
COC(=O)[C@H](C)NC(O)(Oc1ccccc1)Oc1nc(N(C)C)nc(C(C)c2c(F)cccc2F)c1C ; mutations: K103N + Y181C ; cell line: MT-4 ; result: >25 µM
CCc1c(Cc2cc(C)cc(C)c2)n(COCC#Cc2cnccn2)c(=O)[nH]c1=O ; mutations: WT ; cell line: MT-4 ; strain or isolate: IIIB ; result: 0.02 µM
C=Cn1cc(C(=O)O)c(=O)c2ccc(N3CCN(c4nc5ccccc5s4)CC3)cc21 ; cell line: MT-4 ; strain or isolate: IIIB ; result: 0.005 µM
N#Cc1ccc(Nc2nc(Oc3c(F)cc(-c4ccc(C#N)cc4)cc3F)c3sccc3n2)cc1 ; mutations: K103N ; cell line: MT-4 ; strain or isolate: IIIB ; result: 0.0087 µM
Cc1cn([C@H]2C[C@H](N=[N+]=[N-])[C@@H](CO)O2)c(=O)[nH]c1=O ; cell line: MT-4 ; strain or isolate: IIIB ; result: 0.0007 µM
O=Cc1coc2ccc([N+](=O)[O-])cc2c1=O ; cell line: HTLV-I-bearing MT-4 ; strain or isolate: IIIB ; result: >40 µg/mL
CC1=C(C(=O)Nc2cccc([N+](=O)[O-])c2)C2=NN=C(N)C2C(=O)N1 ; cell line: MT-4 ; strain or isolate: IIIB ; result: 101 µg/mL
COc1cccc(OC)c1C1SCC(=O)N1c1ncccc1C ; cell line: MT-2 ; strain or isolate: IIIB ; result: 21.1 µM
CCc1c(Cc2cc(C)cc(C)c2)n(COCC#Cc2ccc(CO[Si](c3ccccc3)(c3ccccc3)C(C)(C)C)cc2)c(=O)[nH]c1=O ; mutations: Y181C ; cell line: MT-4 ; strain or isolate: IIIB ; result: 20 µM
CCOP(=O)(/C=C/[C@]1(C(F)(F)F)CC[C@H](n2cnc3c(N)ncnc32)C1)OCC ; cell line: MT-4 ; result: 10.3 µM
CCOCn1c(Cc2ccc(OC)c(OC)c2)c(CC)c(=O)[nH]c1=O ; mutations: Y181C ; cell line: MT-4 ; strain or isolate: N119 ; result: >100 µM
Cc1ccc([C@H]2C[C@]23C(=O)N(C)c2ccccc23)cc1 ; cell line: MT-4 ; strain or isolate: IIIB ; result: >0.39 µg/mL

Repeating the final 9 entries:

smiles	mutations	cell line	strain or isolate	result
N#Cc1ccc(Nc2nc(Oc3c(F)cc(-c4ccc(C#N)cc4)cc3F)c3sccc3n2)cc1	K103N	MT-4	IIIB	0.0087 µM
Cc1cn([C@H]2C[C@H](N=[N+]=[N-])[C@@H](CO)O2)c(=O)[nH]c1=O		MT-4	IIIB	0.0007 µM
O=Cc1coc2ccc([N+](=O)[O-])cc2c1=O		HTLV-I-bearing MT-4	IIIB	>40 µg/mL
CC1=C(C(=O)Nc2cccc([N+](=O)[O-])c2)C2=NN=C(N)C2C(=O)N1		MT-4	IIIB	101 µg/mL
COc1cccc(OC)c1C1SCC(=O)N1c1ncccc1C		MT-2	IIIB	21.1 µM
CCc1c(Cc2cc(C)cc(C)c2)n(COCC#Cc2ccc(CO[Si](c3ccccc3)(c3ccccc3)C(C)(C)C)cc2)c(=O)[nH]c1=O	Y181C	MT-4	IIIB	20 µM
CCOP(=O)(/C=C/[C@]1(C(F)(F)F)CC[C@H](n2cnc3c(N)ncnc32)C1)OCC		MT-4		10.3 µM
CCOCn1c(Cc2ccc(OC)c(OC)c2)c(CC)c(=O)[nH]c1=O	Y181C	MT-4	N119	>100 µM
Cc1ccc([C@H]2C[C@]23C(=O)N(C)c2ccccc23)cc1		MT-4	IIIB	>0.39 µg/mL